Target: H9-His (soluble extracellular domain of H9N2 HA) (influenza A virus A/chicken/Zhe Jiang/2023010/2023 (H9N2))
Test: negative-stain electron microscopy

H9-His (soluble extracellular domain of H9N2 HA) (domain or fragment)
stoichiometry N: 3
